Results of unrelated studies side by side (data: NIAID ChemDB).

All rows: whole-cell or culture tests; species: HIV-1; read-out: fold resistance

Fold resistance has wild type as its base. Conditions beyond the fields shown may differ between rows. Blank or dashed fields: not listed here.

compound | strain or isolate | mutations | cells | read by | value
Cc1cc(Cl)cc(S(=O)(=O)c2cccc(N)c2C#N)c1 | - | RT-K103N | HeLa + HELA CD4+ | β-galactosidase | 108
Cc1occc1C(=S)Nc1ccc(Cl)c(/C=N/OC(C)(C)C)c1 | HEPT-resistant (RT P236L) | RT-P236L | CEM + CEM-SS | cytopathic effect / XTT | 1
Nc1ccn([C@H]2CC[C@@H](CO)O2)c(=O)n1 | L74V(RT-L74V) | RT-L74V | MT-2 | p24 | 3.3
CC(C)CN(C[C@@H](O)[C@H](Cc1ccccc1)NC(=O)O[C@H]1CCOC1)S(=O)(=O)c1ccc(N)cc1 | IIIB | K112M K113E V128I M200I H219P | MT-2 | p24 / ELISA | 1.1
O=c1[nH]cnc2c1ncn2[C@H]1CC[C@@H](CO)O1 | K65R(RT-K65R) | RT-K65R | MT-2 | p24 | 6.6
COc1ccc(-n2c(C)nnc2SCC(=O)Nc2ccccc2Br)c2ccccc12 | NL4-3 | RT-K103N Y181C | HeLa + HeLa-JC53 | luciferase | 133
Cc1cn([C@H]2C[C@H](N=[N+]=[N-])[C@@H](CO)O2)c(=O)[nH]c1=O | BCF06 | RT-A98G K103R | PBMC | - | >3
Cc1cn([C@H]2C=C[C@@H](CO)O2)c(=O)[nH]c1=O | HXB2 | RT-V75T | CD4+HELA + HeLa | plaque count | 7.6
COc1ccc2c(c1)N(C(=O)OC(C)C)[C@@H](CSC)C(=S)N2 | A2(RT-L74V G190E) | RT-L74V G190E | H9 | p24 | >1430
Nc1ccn([C@H]2CC[C@@H](CO)O2)c(=O)n1 | JF14 (RT D67N T69D T215Y) | RT-D67N T69D T215Y | HELA-CD4+ | plaque count | 3.98
C/C=C/CSc1cc(NC(=S)c2ccsc2C)ccc1Cl | UC82-R (RT-Y181C) | RT-Y181C | CEM + CEM-SS | cytopathic effect / XTT | >33.3
CCOP(=O)(COc1ccc(C[C@H](NC(=O)O[C@H]2CO[C@H]3OCC[C@H]32)[C@H](O)CN(CC(C)C)S(=O)(=O)c2ccc(OC)cc2)cc1)OCC | IIIB | ATV-P36 atazanavir-resistant mutant | MT-2 | ATP | 0.5
Cc1cn([C@H]2C[C@H](N=[N+]=[N-])[C@@H](CO)O2)c(=O)[nH]c1=O | Thiazolobenzimidazole-resistant (RT V108I) | RT-V108I | CEM + CEM-SS | XTT | 0.8
Cc1ccc2cc(Cl)cc(-n3c(C)nnc3SCC(=O)Nc3ccc(S(N)(=O)=O)cc3Cl)c2n1 | NL4-3 | RT-Y188L | HeLa + HeLa-JC53 | luciferase | 50
Cc1cn([C@H]2C=C[C@@H](CO)O2)c(=O)[nH]c1=O | NL4-3 | RT-K103N M184V | MAGI (CCR5) + MAGI | β-galactosidase | 0.8
Cc1ccnc2c1NC(=O)c1cccnc1N2C1CC1 | VAU (RT-A98G) | RT-A98G | PBMC | - | 1
Cc1cn([C@H]2C[C@H](N=[N+]=[N-])[C@@H](CO)O2)c(=O)[nH]c1=O | P022C RT D67N K70R T215F K219Q | RT-D67N K70R T215F K219Q | HT4 + HT4-6C | plaque count | 140
Cc1cn([C@H]2C[C@H](N=[N+]=[N-])[C@@H](CO)O2)c(=O)[nH]c1=O | - | INTG-N155S | - | - | 1
CC(C)(C)NC(=O)[C@@H]1C[C@@H]2CCCC[C@@H]2CN1C[C@@H](O)[C@H](Cc1ccccc1)NC(=O)[C@H](CC(N)=O)NC(=O)c1ccc2ccccc2n1 | NL4-3 | PR-I84V | MT-4 | p24 | 2
O=c1[nH]cnc2c1ncn2[C@H]1CC[C@@H](CO)O1 | K65R | RT-K65R | - | - | 7
CC(=O)c1ccc(C)cc1NC(C(N)=O)c1c(Cl)cccc1Cl | IIIB | RT-V103A | MAGI | MTT | 7.11
Nc1nc2c(ncn2[C@H]2CO[C@@H](CO)O2)c(=O)[nH]1 | RT-62V 69[SS] 70R 215Y | RT A62V T69SS insertion K70R T215Y | - | - | 1
Cc1ccnc2c1NC(=O)c1cccnc1N2C1CC1 | Oxathiin carboxanilide-resistant RT L100I | RT-L100I | CEM + CEM-SS | cytopathic effect / XTT | 10
Cn1c2ccccc2c2c1cc(C#N)c(=O)n2-c1ccc([N+](=O)[O-])cc1 | NRTI resistant | RT-K65R K70R V75I F77L F116Y Q151M | HeLa | luciferase | 1.6
Cc1ccnc2c1NC(=O)c1cccnc1N2C1CC1 | NL4-3 | RT-A98G | CEM + CEM-SS | XTT | 10
Cc1cn([C@H]2C[C@H](N=[N+]=[N-])[C@@H](CO)O2)c(=O)[nH]c1=O | M184V(RT-M184V) | RT-M184V | MT-2 | p24 | 0.6
CCc1c(Sc2ccccn2)n(COCc2ccccc2)c(=O)[nH]c1=O | IIIB HEPT-resistant (RT P236L) | RT-P236L | CEM + CEM-SS | cytopathic effect / XTT | 20
CC(C)=CCN1c2cc(Cl)cc3[nH]c(=S)n(c23)C[C@@H]1C | - | RT-M41L T215Y A98G | MT-4 | - | 8
O=C1O[C@H]2[C@@H]3OC(=O)c4cc(O)c(O)c(O)c4-c4c(cc(O)c(O)c4O)C(=O)OC[C@H]2O[C@@H](OC(=O)c2cc(O)c(O)c(O)c2)[C@@H]3OC(=O)c2cc(O)c(O)c3c2[C@@H]2C1=CC(=O)[C@](O)(O3)C2(O)O | NRTI resistant (RT M184V) ARP145 | RT-M184V | MAGI | - | 1.28
Nc1ccn([C@H]2C=C[C@@H](CO)O2)c(=O)n1 | HXB2 | RT-M184V | CD4+HELA + HeLa | plaque count | 1.11
Cc1cc(Br)cc(S(=O)(=O)c2cccc(N)c2C#N)c1 | - | RT-V108I | HeLa + HELA CD4+ | β-galactosidase | 1.55
Cc1ccc(NC(=O)CSc2nnc(C)n2-c2ccc(Cl)c3ccccc23)c(Cl)c1 | NL4-3 | RT-K103N Y181C | HeLa + HeLa-JC53 | luciferase | 190
CC(C)=CCN1Cc2cc(Cl)cc3[nH]c(=S)n(c23)C[C@@H]1C | HXB2 | RT-Y181C | HT4 + HT4 LacZ-1 | plaque count | 40.9
Nc1nc(=O)n([C@@H]2CS[C@H](CO)O2)cc1F | RTMN (RT-M41L T215Y) | RT-M41L 215Y | HT4 + HT4 LacZ-1 | plaque count | 3.78
Nc1ncnc2c1ncn2[C@@H]1O[C@H](CO)C[C@@H]1F | M184V(RT-M184V) | RT-M184V | MT-2 | p24 | 0.9
Cc1cc(O)cc(S(=O)(=O)c2cccc(N)c2C#N)c1 | - | RT-V106A | HeLa + HELA CD4+ | β-galactosidase | 0.206
CC(C)CN(C[C@@H](O)[C@H](Cc1ccccc1)NC(=O)[C@H](CC(N)=O)NC(=O)c1ccc2ccccc2n1)C(=O)NC(C)(C)C | NL4-3 | PR-L10R M46I L63P V82T I84V | MT-4 | p24 | 7.5
C=C(C)OC(=O)N1c2cc(Cl)ccc2NC(=S)C1(C)C | B8 (RT K101I K103N Y181C G190A) | RT-K101I K103N Y181C G190A | H9 | p24 | >1670
COc1cc(C(F)(F)F)cc(S(=O)(=O)c2cccc(N)c2C#N)c1 | - | RT-V108I Y181C | HeLa + HELA CD4+ | β-galactosidase | 1000
Cc1cn([C@@H]2O[C@H](CO[Si](C)(C)C(C)(C)C)[C@@]3(OS(=O)(=O)C=C3N)[C@H]2O[Si](C)(C)C(C)(C)C)c(=O)[nH]c1=O | UC781-R (RT-Y181C) | RT-Y181C | CEM + CEM-SS | cytopathic effect / XTT | >200
Nc1nc2c(ncn2[C@H]2CO[C@@H](CO)O2)c(=O)[nH]1 | - | RT-K103N V108I | - | - | ~0.1
CC(C)(C)C(=O)c1sc(C(=O)NCc2ccccc2)c(O)c1O | - | INTG-T66I | - | - | 0.16
CC(C)=CCN1Cc2cc(Cl)cc3[nH]c(=S)n(c23)C[C@@H]1C | BCF08 | RT-A98G Y181C | PBMC | - | >312.5
O=C(Nc1ccccc1)C1=COCCS1 | IIIB | RT-Y181C | CEM + CEM-SS | cytopathic effect / XTT | 8
CC(C)OC(=O)OCOP(=O)(CO[C@H](C)Cn1cnc2c(N)ncnc21)OCOC(=O)OC(C)C | G691-2 AZT-resistant (RT D67N K70R T215Y K219Q) | RT-D67N K70R T215Y K219Q | MT-2 | p24 | 0.142
O=c1[nH]cnc2c1ncn2[C@H]1CC[C@@H](CO)O1 | Recombinant | RT-M41L S68N G112S M184V | HeLa | luciferase | 1.4
C#C[C@@]1(CO)C=C[C@H](n2cc(C)c(=O)[nH]c2=O)O1 | HXB2 | RT-K103N | MAGI (CCR5) + MAGI | β-galactosidase | 0.3
O=C(NCc1ccc(F)cc1)c1nc(N2CCCCS2(=O)=O)c2cccnc2c1O | - | INTG-N155S | - | - | 30
Cc1ccc(-n2c(C)nnc2SCC(=O)Nc2ccc(C)cc2Br)cc1 | NL4-3 | RT-K103N Y181C | HeLa + HeLa-JC53 | luciferase | 250
Cc1cc(S(N)(=O)=O)ccc1NC(=O)COc1ccc(Cl)cc1C(=O)c1cc(Cl)cc(C#N)c1 | NNRTI-resistant (RT P236L) | RT-P236L | MAGI | β-galactosidase | 2.1
Cc1occc1C(=S)Nc1ccc(Cl)c(/C=N/OC(C)(C)C)c1 | Calanolide A-resistant (RT T139I) | RT-T139I | CEM + CEM-SS | XTT | 3
Cc1cn([C@H]2C=C[C@@H](CO)O2)c(=O)[nH]c1=O | Recombinant | RT-M41L A62V S68N G112S M184V | HeLa | luciferase | 0.4
Cc1cn([C@H]2C[C@H](N=[N+]=[N-])[C@@H](CO)O2)c(=O)[nH]c1=O | IIIB | RT-P236L | CEM + CEM-SS | cytopathic effect / XTT | 0.2
O=c1[nH]cnc2c1ncn2[C@H]1CC[C@@H](CO)O1 | RT-62V 69[SS] 70R 215Y | RT A62V T69SS insertion K70R T215Y | - | - | 1.2
O=c1[nH]cnc2c1ncn2[C@H]1CC[C@@H](CO)O1 | RTMC(181 184) (RT-D67N K70R Y181C M184V 215F 219Q) | RT-D67N K70R Y181C M184V T215F K219Q | HT4 + HT4 LacZ-1 | plaque count | 1.62
C1=Nc2ccccc2SN1 | IIIB HEPT-resistant (RT P236L) | RT-P236L | CEM + CEM-SS | cytopathic effect / XTT | 1.1
COc1cc(-n2c(C)nnc2SCC(=O)Nc2ccc(S(N)(=O)=O)cc2Cl)c2ncccc2c1 | NL4-3 | RT-Y188L | HeLa + HeLa-JC53 | luciferase | 462

The last 7 rows once more:

{"compound": "Cc1occc1C(=S)Nc1ccc(Cl)c(/C=N/OC(C)(C)C)c1", "strain or isolate": "Calanolide A-resistant (RT T139I)", "mutations": "RT-T139I", "cells": "CEM + CEM-SS", "read by": "XTT", "value": "3"}
{"compound": "Cc1cn([C@H]2C=C[C@@H](CO)O2)c(=O)[nH]c1=O", "strain or isolate": "Recombinant", "mutations": "RT-M41L A62V S68N G112S M184V", "cells": "HeLa", "read by": "luciferase", "value": "0.4"}
{"compound": "Cc1cn([C@H]2C[C@H](N=[N+]=[N-])[C@@H](CO)O2)c(=O)[nH]c1=O", "strain or isolate": "IIIB", "mutations": "RT-P236L", "cells": "CEM + CEM-SS", "read by": "cytopathic effect / XTT", "value": "0.2"}
{"compound": "O=c1[nH]cnc2c1ncn2[C@H]1CC[C@@H](CO)O1", "strain or isolate": "RT-62V 69[SS] 70R 215Y", "mutations": "RT A62V T69SS insertion K70R T215Y", "value": "1.2"}
{"compound": "O=c1[nH]cnc2c1ncn2[C@H]1CC[C@@H](CO)O1", "strain or isolate": "RTMC(181 184) (RT-D67N K70R Y181C M184V 215F 219Q)", "mutations": "RT-D67N K70R Y181C M184V T215F K219Q", "cells": "HT4 + HT4 LacZ-1", "read by": "plaque count", "value": "1.62"}
{"compound": "C1=Nc2ccccc2SN1", "strain or isolate": "IIIB HEPT-resistant (RT P236L)", "mutations": "RT-P236L", "cells": "CEM + CEM-SS", "read by": "cytopathic effect / XTT", "value": "1.1"}
{"compound": "COc1cc(-n2c(C)nnc2SCC(=O)Nc2ccc(S(N)(=O)=O)cc2Cl)c2ncccc2c1", "strain or isolate": "NL4-3", "mutations": "RT-Y188L", "cells": "HeLa + HeLa-JC53", "read by": "luciferase", "value": "462"}